Measured values from several laboratories, pooled; numbers as filed in NIAID ChemDB.

Rows are shuffled and stem from different studies.

SMILES	test	organism	strain or isolate	cells	protein	endpoint	value
Nc1nc(N)c2ncn(C[C@@H](CO)OCP(=O)(O)O)c2n1	toxicity	-	-	PHK	-	CC50	>42.5 µg/mL
O=C(N[C@@H](Cc1c[nH]c2ccc(O)cc12)C(=O)O)c1ccc2c(c1)nc(-c1ccc(OCCO)cc1)n2C1CCCCC1	target	Poliovirus	-	-	RNA-dependent RNA polymerase	IC50	>25 µM
CC(=O)NC(C(=O)N1CCCCCC1)[C@H]1CC(C(=O)O)C[C@@H]1N=C(N)N	target	Influenza A virus (H6N2)	-	-	Neuraminidase	IC50	0.99 µM
Nc1ccn(C[C@@H](CO)OCP(=O)(O)O)c(=O)n1	culture	Camelpox virus	-	3T3	-	EC50	2.5 µM
COc1ccc(C[C@H](NC(=O)c2ccc3c(c2)nc(-c2ccoc2)n3C2CCCCC2)C(=O)O)cc1	target	Poliovirus	-	-	RNA-dependent RNA polymerase	IC50	>25 µM
CCCCC(CC)NC(=O)C(NC(C)=O)[C@H]1CC(C(=O)O)C[C@@H]1N=C(N)N	target	Influenza A virus (H6N2)	-	-	Neuraminidase	IC50	1.8 µM
O=C(O)COc1ccc2[nH]cc(CC(NC(=O)c3ccc4c(c3)nc(-c3ccoc3)n4C3CCCCC3)C(=O)O)c2c1	target	Poliovirus	-	-	RNA-dependent RNA polymerase	IC50	>25 µM
Nc1ccn(C[C@@H](CO)OCP(=O)(O)O)c(=O)n1	culture	Camelpox virus	-	VERO	-	EC50	22 µM
O=C(N[C@@H](Cc1c[nH]c2ccccc12)C(=O)O)c1ccc2c(c1)nc(-c1ccoc1)n2C1CCCCC1	target	Poliovirus	-	-	RNA-dependent RNA polymerase	IC50	>25 µM
Cn1c(O)c(N=NC(N)=S)c2ccccc21	culture	Monkeypox virus	-	BSC	-	EC50	141 µM
NC12CC3CC(CC(C3)C1)C2	culture	Influenza A virus	H2N2 Kaizuka/2/65	MDCK	-	EC50	0.15 µg/mL
O=C(N[C@@H](Cc1cc2ccccc2[nH]1)C(=O)O)c1ccc2c(c1)nc(-c1ccoc1)n2C1CCCCC1	target	Poliovirus	-	-	RNA-dependent RNA polymerase	IC50	>25 µM
NC(=O)c1ncn([C@@H]2O[C@H](CO)[C@@H](O)[C@H]2O)n1	culture	Cowpox virus	-	HFF	-	EC50	>410 µM
CN(C)CCCNC(=O)COc1ccc(-c2nc3cc(C(=O)O)ccc3n2C2CCCCC2)cc1	target	Poliovirus	-	-	RNA-dependent RNA polymerase	IC50	>25 µM
NC(=O)c1[nH]nc([C@@H]2O[C@H](CO)[C@@H](O)[C@H]2O)c1O	toxicity	-	-	VERO 76	-	CC50	32 µM
Cc1ccc(C(NC(=O)c2ccc3c(c2)nc(-c2ccoc2)n3C2CCCCC2)C(=O)O)cc1C	target	Poliovirus	-	-	RNA-dependent RNA polymerase	IC50	>25 µM
Nc1nc(NC2CC2)c2ncn(CCCOCP(=O)(O)O)c2n1	toxicity	-	-	PHK	-	CC50	15.9 µg/mL
O=C(N[C@H](CO)Cc1ccc(O)cc1)c1ccc2c(c1)nc(-c1ccoc1)n2C1CCCCC1	target	Poliovirus	-	-	RNA-dependent RNA polymerase	IC50	>25 µM
NC(=O)c1csc([C@@H]2O[C@H](CO)[C@@H](O)[C@H]2O)n1	culture	Vaccinia virus	Elstree	VERO	-	EC50	45 µg/mL
NC(=O)c1c[se]c([C@@H]2O[C@H](CO)[C@@H](O)[C@H]2O)n1	culture	Japanese encephalitis virus	Nakayama	VERO 76	-	EC50	3 µg/mL
CC(C)OP(=O)(O)COCCn1cnc2c(=O)[nH]c(N)nc21	toxicity	-	-	PHK	-	CC50	13.6 µg/mL
COC(=O)[C@H](Cc1c[nH]c2ccc(O)cc12)NC(=O)c1ccc2c(c1)nc(-c1ccccn1)n2C1CCCCC1	target	Poliovirus	-	-	RNA-dependent RNA polymerase	IC50	>25 µM
CC(=O)NC(C(=O)N1CCCCC1C)[C@H]1CC(C(=O)O)C[C@@H]1N=C(N)N	target	Influenza A virus (H6N2)	-	-	Neuraminidase	IC50	0.24 µM
CC(=O)Nc1c(O)cc(C(=O)O)cc1[N+](=O)[O-]	target	Influenza A virus	N2 (A/TOKYO/67)	-	Neuraminidase	IC50	1000 µM
CC(=O)NC(C(=O)N1CCCC(C)C1)[C@H]1CC(C(=O)O)C[C@@H]1N=C(N)N	target	Influenza A virus (H6N2)	-	-	Neuraminidase	IC50	2.55 µM
CCCCCCCCCCCCCCCCCCOCCOP1(=O)CO[C@@H](Cn2ccc(N)nc2=O)CO1	culture	Cowpox virus	Brighton	HFF	-	EC50	0.5 µM
O=C(O)COc1ccc(C[C@@H](NC(=O)Cc2ccc3c(c2)nc(-c2ccccn2)n3C2CCCCC2)C(=O)O)cc1	target	Poliovirus	-	-	RNA-dependent RNA polymerase	IC50	>25 µM
Nc1nc2c(ncn2C[C@@H]2COP(=O)(O)CO2)c(=O)[nH]1	toxicity	-	-	PHK	-	CC50	13.6 µg/mL
CCCCCCCCCCCCCCCCCCOCCOP(=O)(O)CO[C@H](CO)Cn1ccc(N)nc1=O	culture	Vaccinia virus	Elstree	HFF	-	EC50	0.4 µM
CCN(CCO)C(=O)C(NC(C)=O)[C@H]1CC(C(=O)O)C[C@@H]1N=C(N)N	target	Influenza A virus (H6N2)	-	-	Neuraminidase	IC50	0.72 µM
C[C@@H](Cn1cnc2c(=O)[nH]c(N)nc21)OCP(=O)(O)O	toxicity	-	-	PHK	-	CC50	5.3 µg/mL
Nc1ccn(C[C@H]2COP(=O)(O)CO2)c(=O)n1	culture	Cowpox virus	-	VERO 76	-	EC50	158 µM
O=C(N[C@@H](Cc1c[nH]c2ccc(O)cc12)C(=O)O)c1ccc2c(c1)nc(-c1ccccc1)n2C1CCCCC1	target	Poliovirus	-	-	RNA-dependent RNA polymerase	IC50	>25 µM
CC1(C)[C@@H](O[C@H]2O[C@H](C(=O)O)[C@@H](O)[C@H](O)[C@H]2O[C@@H]2O[C@H](C(=O)O)[C@@H](O)[C@H](O)[C@H]2O)CC[C@]2(C)[C@H]3C(=O)C=C4[C@@H]5C[C@@](C)(C(=O)O)CC[C@]5(C)CC[C@@]4(C)[C@]3(C)CC[C@@H]12	culture	Yellow fever virus	17D	VERO	-	EC90	530 µg/mL

The last 3 rows once more:

SMILES | test | organism | strain or isolate | cells | protein | endpoint | value
Nc1ccn(C[C@H]2COP(=O)(O)CO2)c(=O)n1 | culture | Cowpox virus | - | VERO 76 | - | EC50 | 158 µM
O=C(N[C@@H](Cc1c[nH]c2ccc(O)cc12)C(=O)O)c1ccc2c(c1)nc(-c1ccccc1)n2C1CCCCC1 | target | Poliovirus | - | - | RNA-dependent RNA polymerase | IC50 | >25 µM
CC1(C)[C@@H](O[C@H]2O[C@H](C(=O)O)[C@@H](O)[C@H](O)[C@H]2O[C@@H]2O[C@H](C(=O)O)[C@@H](O)[C@H](O)[C@H]2O)CC[C@]2(C)[C@H]3C(=O)C=C4[C@@H]5C[C@@](C)(C(=O)O)CC[C@]5(C)CC[C@@]4(C)[C@]3(C)CC[C@@H]12 | culture | Yellow fever virus | 17D | VERO | - | EC90 | 530 µg/mL

ICn is the concentration giving n% inhibition. ECn: concentration that inhibits the pathogen or its effect by n%. CCn is the concentration with n% toxicity to the cells. An empty or dashed field is not shown.